# Assay results as given in article PMC9782603 (Viruses, 2022).
# What was measured:
# [1] = tested on: HCV GT 1b subgenomic reporter replicon (strain Con1); test: HCV GT 1b subgenomic replicon luciferase antiviral assay in Huh5-2 cells; type: cell-based; conditions: SI = CC50/EC50, GT 1b
# [2] = tested on: HCV GT 3a (strain S52) replicon; test: HCV GT 3a subgenomic replicon luciferase antiviral assay in Huh7.5-3a cells; type: cell-based; conditions: SI = CC50/EC50, GT 3a
SMILES,SI HCV Replicon 1b [1],SI HCV Replicon 3a [2]
"Cc1ccc(OCC(=O)Nc2ccc3c(c2)c(=O)nc(C)n3-c2ccccc2)cc1 [11a, N-(2-Methyl-4-oxo-1-phenyl-1,4-dihydroquinazolin-6-yl)-2-(p-tolyloxy)acetamide]",160.71,
"Cc1cccc(-n2c(C)nc(=O)c3cc(NC(=O)COc4ccc(Cl)cc4)ccc32)c1 [11e, 2-(4-Chlorophenoxy)-N-(2-methyl-4-oxo-1-(m-tolyl)-1,4-dihydroquinazolin-6-yl)acetamide]",5.86,4.36
"Cc1nc(=O)c2cc(NC(=O)COc3ccc(Cl)cc3)ccc2n1-c1ccccc1 [11b, 2-(4-Chlorophenoxy)-N-(2-methyl-4-oxo-1-phenyl-1,4-dihydroquinazolin-6-yl)acetamide]",71.75,8.5
"Nc1ccc2c(c1)c(=O)ncn2-c1ccccc1 [5a, 6-Amino-1-phenylquinazolin-4(1H)-one]",>20.32,
"COC(=O)N[C@H](C(=O)N1CCC[C@H]1c1nc(-c2ccc(-c3ccc(-c4c[nH]c([C@@H]5CCCN5C(=O)[C@@H](NC(=O)OC)C(C)C)n4)cc3)cc2)c[nH]1)C(C)C [Daclatasvir, reference compound]","680,769.23",2120.27
